Results reported in the supplement of paper PMC9931576.
Human monoclonal antibodies against the spike receptor-binding domain (heavy:light variable regions). IC50 against pseudoviruses bearing the spike of naturally observed variants; lower = stronger; >10 µg/ml means not reached at the top dose. No active / inactive call. The stated detection limit is 0.0005 µg/ml; values near or below 0.001 µg/ml lie at the floor of the assay.

B1: BD55-6684 (protein)
chain 1: EVQLVQSGAEVKKPGESLKISCKGSGYSFTTYWLGWVRQVPGKGLESMGIIYPGDSDTKYSPSFQGQVTISVDKSISTAYLQWSSLQASDTGIYYCASSFWGVGLTHAFDIWGQGTMVTVSS
chain 2: DIQMTQSPSTLSASVGDRVTITCRASQSISSWLAWYQQKPGKAPKILIYKASTLESGVPSRFSGSGSGTKFTLTITSLQPDDFATYYCQQYSSYSRTFGQGTKVEIK
B2: BD55-6685 (protein)
chain 1: QPQLRESGSGLVRPSQTLSLTCGVSGASISSDGYSWAWIRQPPGMGLEWIGYIHQSGSTFYDPSFQSRVTISVDRSKNNLTLKLASVTAADSAVYFCARILRDDKPVEGVFDIWGQGTMVIVSS
chain 2: EIVMTQSPATLPVSPGERATLSCRASQYVSSNLAWYQQKPGQAPRLLIYGTSTRAAGIPTRFSGSGSGTEFTLTISSLQSNDFAVYYCQQYHNWPLWTFGQGTKVEI
B3: BD55-6682 (protein)
chain 1: QVQLQESGPGVVKPSETLSLTCTVSGGSTNSDSWSWIRQSPGKGLEWIGYIYYSGTTNYNPSLMSRVTISLDTSKNQFFLKLGSVTAADTAVYYCARETRSQVGFYYMDVWGKGTTVTVSS
chain 2: DIQMTQSPSSLSASVGDRVTITCRASQSISTYLNWYQQKPGKAPKVLIYAASSLQSGVPSRFSGSGSGRDFTLTITKLQPEDFATYYCQQSYTVPPYTFGQGTKLET
B4: BD55-6686 (protein)
chain 1: DVQLLESGGGLVQPGGSLRLSCAASGFTFSNYAMNWVRQAPGKGLEWVSGTSSSGSGTVYADSVKGRFTMSRDNSKNTLYLQMNSLRADDAAVYYCVKDFGTSITFDVFDMWGQGTMVTVSS
chain 2: DIQMTQSPSSLSASVGDRVTLTCRASQNIINYLNWYQQRPGKAPKLLIYGASNLQSGVPSRFSGSGSGTDFTLTINSLQPEDFATYYCQQSYETPPLTFGGGTKVEIK
B5: BD55-6688 (protein)
chain 1: QVQLVQSGAEVKKPGASVKVSCKASGDTFSSYDINWVRQATGQGLEWMGWMNPKSGNTGYAQKFQGRVTMTRNTSISTVYMELSSLRSEDTAVYYCARERSELFYYLAVDVWGQGTPVTVSS
chain 2: DIQMTQSPSSLSASVGDRVTITCRASQSINIYLHWYQQKPGNAPKLLIYAASSLQGGVPSRFSGSGSGTDFTLTISSLQPEDFATYYCQQSYTTLRTFGGGTKVEIK
B6: BD55-6683 (protein)
chain 1: QVQLQESGPRLVKPSQTLSLTCTVSGDSISSGNYYWSWIRQPAGKGMEWIGRIYSRGSTKYTNYRPSLGSRVTMSVDTSKNQFSLKLNSVTAADTAVYYCARGGCDTTSCFGFYFYAMDVWGQGTTVTVSS
chain 2: DIQMTQSPSSLSASVGDRVTITCQASHDINNHLNWYQQKLGTAPKLLIYDASNLQTGVPPRFSGSASGAHFTLTISSLQPEDFATYFCQQYRDLPLTFGPGTKVDFK

Tests used:
Assay in all cases: pseudovirus neutralization IC50; higher = weaker neutralization
[1] = target: SARS-CoV-2 Omicron BA.1 spike pseudovirus
Method: (§1)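 Single-round VSV luciferase pseudovirus mixed with antibody dilutions for 1 h and put on Huh-7 cells for about a day; IC50 from the dose curve.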

[2] = target: SARS-CoV-2 Omicron BA.2 spike pseudovirus
Method: as §1

[3] = target: SARS-CoV-2 Omicron BA.2.75 spike pseudovirus
Method: as §1

[4] = target: SARS-CoV-2 Omicron BA.5 spike pseudovirus
Method: as §1

[5] = target: SARS-CoV-2 Omicron BQ.1.1 spike pseudovirus
Method: as §1

[6] = target: SARS-CoV-2 Omicron XBB spike pseudovirus
Method: as §1

[7] = target: SARS-CoV-2 early D614G spike pseudovirus
Method: as §1

Binder | pseudovirus neutralization IC50 [1] [µg/mL] | pseudovirus neutralization IC50 [2] [µg/mL] | pseudovirus neutralization IC50 [3] [µg/mL] | pseudovirus neutralization IC50 [4] [µg/mL] | pseudovirus neutralization IC50 [5] [µg/mL] | pseudovirus neutralization IC50 [6] [µg/mL] | pseudovirus neutralization IC50 [7] [µg/mL]
B1 | > 10 | > 10 | > 10 | > 10 | > 10 | > 10 | 1.72
B2 | > 10 | > 10 | > 10 | > 10 | > 10 | > 10 | > 10
B3 | > 10 | > 10 | > 10 | > 10 | > 10 | > 10 | > 10
B4 | > 10 | > 10 | > 10 | > 10 | > 10 | > 10 | > 10
B5 | > 10 | > 10 | > 10 | > 10 | > 10 | > 10 | > 10
B6 | > 10 | > 10 | > 10 | > 10 | > 10 | > 10 | 2.22
